Pooled drug test results. Numbers come from NIAID ChemDB, via PubChem.

Shared fields: target-level tests; agent: HIV-1; target: Protease

Rows are shuffled and stem from different studies. An empty or dashed field is not shown. ICn is the concentration giving n% inhibition.

| SMILES | strain | read by | setting | measure | mutations | result |
|---|---|---|---|---|---|---|
| CC(C)[C@H](NC(=O)O)C(=O)N[C@@H](Cc1ccccc1)[C@@H](O)[C@H](O)[C@H](Cc1ccccc1)NC(=O)[C@@H](NC(=O)O)C(C)C | - | substrate cleavage | - | IC50 | - | 0.5 µM |
| CC[C@@H](C)[C@H](NC(=O)[C@@H]1CCCN1C(=O)[C@@H](O)[C@H](CC1CCCCC1)NC(=O)[C@H](CC(N)=O)NC(=O)[C@H]1Cc2ccccc2CN1)C(=O)N[C@H](C(N)=O)C(C)C | - | - | - | IC50 | - | <5 µM |
| CC(C)(C)NC(=O)[C@H]1CCCN1C(=O)[C@H](Cc1ccccc1)N(O)C(=O)[C@H](Cc1ccccc1)NC(=O)OC(C)(C)C | - | HPLC | - | IC50 | - | 0.73 µM |
| COc1cc(O)cc(O)c1C(=O)/C=C/c1ccccc1 | - | HPLC | - | IC50 | - | >100 µM |
| CC(C)[C@@H]1NC(=O)CCOCCCOc2ccc(cc2)C[C@@H]([C@H](O)CN2C[C@H]3CCCC[C@H]3C[C@H]2C(=O)NC(C)(C)C)NC1=O | IIIB | HPLC | - | IC50 | - | 0.001 µM |
| O=C1C(O)=C(c2c[nH]c3ccccc23)C(=O)C(O)=C1c1c[nH]c2ccccc12 | - | - | - | IC50 | - | 0.24 µM |
| COc1cc([C@H]2O[C@H](c3ccc(OC(C)C(O)c4ccc5c(c4)OCO5)c(OC)c3)[C@H](C)[C@H]2C)ccc1O | - | HPLC | - | IC50 | - | >125 µM |
| CC(C)[C@H](NC(=O)N(C)Cc1cncs1)C(=O)N[C@@H](Cc1ccccc1)[C@H](O)CN1CCN(Cc2cncs2)C[C@H]1C(=O)NC(C)(C)C | - | substrate cleavage | - | IC50 | - | 0.0005 µM |
| O=C(CCc1ccccc1)c1c(O)cc(O)cc1O | - | HPLC | - | IC50 | - | >100 µM |
| CC(C)=CCc1ccc2c(C3=C(O)C(=O)C(c4c[nH]c5cc(CC=C(C)C)ccc45)=C(O)C3=O)c[nH]c2c1 | - | - | - | IC50 | - | 0.18 µM |
| COC(=O)c1cc(NC(=O)c2nc3ccc(NC(=O)c4cc(NC(=O)OC(C)(C)C)cs4)cc3o2)cs1 | - | fluorescence | - | IC50 | L24I/M46I/F53L/L63P/V77I/V82A | 10.6 µM |
| O=C(O)N[C@@H](Cc1c[nH]c2ccccc12)C(=O)N[C@@H](Cc1ccccc1)[C@@H](O)[C@H](O)[C@H](Cc1ccccc1)NC(=O)[C@H](Cc1c[nH]c2ccccc12)NC(=O)O | - | substrate cleavage | - | IC50 | - | 25 µM |
| CC(C)Oc1cccc(OCC(=O)N[C@@H](CC(N)=O)C(=O)N[C@@H](Cc2ccccc2)[C@H](O)C(=O)N2CSC(C)(C)[C@H]2C(=O)NC(C)(C)C)c1 | - | - | - | IC50 | - | <0.05 µM |
| CC(C)C[C@H](NC(=O)C[C@H](O)[C@H](CC1CCCCC1)NC(=O)[C@H](C)NC(=O)C1Cc2ccccc2CN1)C(=O)N[C@@H](Cc1ccccc1)C(N)=O | - | HPLC | - | IC50 | - | 0.09 µM |
| CC[C@@H](C)[C@H](NC(=O)[C@@H]1CCCN1C(=O)[C@@H](O)[C@H](Cc1ccccc1)NC(=O)[C@H](CC(N)=O)NC(=O)OC(C)(C)C)C(=O)NCC(C)C | - | - | - | IC50 | - | >5 µM |
| C=CC(C)(C)c1[nH]c2ccccc2c1C1=C(O)C(=O)C(c2c[nH]c3c(CC=C(C)C)cccc23)=C(O)C1=O | WT | - | - | IC50 | - | ~57 µM |
| CC(C)C[C@H](NC(=O)C[C@H](O)[C@H](CC1CCCCC1)NC(=O)[C@H](C)NC(=O)C1Cc2ccccc2CN1)C(=O)N[C@@H](Cc1ccccc1)C(=O)O | - | HPLC | - | IC50 | - | 0.2 µM |
| CC(C)C[C@H](NC(=O)[C@@H]1CC(=O)NC/C=C/CCCOC(=O)N[C@@H](C(C)C)C(=O)N1)[C@@H](O)C[C@@H](C)C(=O)N[C@H](C(=O)NOCc1ccccc1)C(C)C | - | - | - | Ki | - | 0.014 µM |
| CC[C@H](C)[C@H](NC(=O)[C@@H](NC(=O)[C@H](Cc1ccccc1)NC(C)=O)[C@@H](C)CC)[C@H](O)[C@@H](O)[C@H](CC1CCCCC1)NC(=O)[C@H](CCC(=O)O)NC(=O)[C@H](Cc1ccccc1)NC(C)=O | - | substrate cleavage | - | IC50 | - | 0.4 µM |
| Cc1c(O)cccc1C(=O)N[C@@H](Cc1ccccc1)C(=O)N(O)CC(=O)N[C@@H](Cc1ccccc1)C(=O)NC(C)(C)C | - | HPLC | - | IC50 | - | 2.2 µM |
| CC(C)[C@H](NC(=O)c1cc(=O)c2ccccc2o1)C(=O)N[C@@H](Cc1ccccc1)[C@H](O)[C@@H](O)[C@H](Cc1ccccc1)NC(=O)[C@@H](NC(=O)[C@H](Cc1c[nH]c2ccccc12)NC(=O)c1cc(=O)c2ccccc2o1)C(C)C | - | substrate cleavage | - | IC50 | - | 0.005 µM |
| CC[C@H](C)[C@@H](NC(=O)[C@@H](C[C@H](O)[C@H](CC(C)C)NC(=O)[C@H](Cc1cnc[nH]1)NC(=O)[C@H](Cc1ccccc1)NC(=O)[C@@H]1CCCN1C(=O)[C@@H](N)Cc1cnc[nH]1)C(C)C)C(=O)N[C@@H](Cc1cnc[nH]1)C(=O)O | - | HPLC | pH 4.7 | Ki | - | 0.005 µM |
| O=C(N[C@@H](Cc1ccccc1)[C@H](O)[C@H](O)[C@@H](Cc1ccccc1)NC(=O)OCc1ccccc1)OCc1ccccc1 | - | substrate cleavage | - | Ki | - | 0.026 µM |
| C=CCOC1C[C@@H](C(=O)NC(C)(C)C)N(C(=O)[C@@H](O)[C@H](Cc2ccccc2)NC(=O)[C@H](CS(C)(=O)=O)NC(=O)COc2cccc3ccccc23)C1 | - | - | - | IC50 | - | >0.05 µM |
| Nc1cccc(C(=O)N[C@H](Cc2ccccc2)C[C@H](O)[C@H](Cc2ccccc2)NC(=O)c2cccc(N)c2)c1 | - | substrate cleavage | - | Ki | PR-V821 | 0.096 µM |
| CC(C)CN(C[C@@H](O)[C@H](Cc1cc(F)cc(F)c1)NC(=O)O[C@H]1CO[C@H]2OC[C@H](NC(C)C)[C@H]21)S(=O)(=O)c1ccc2nc(NC3CC3)sc2c1 | - | substrate cleavage / fluorescence | - | Ki | - | 0.0001 µM |
| O=C(N[C@@H](Cc1ccccc1)[C@@H](O)[C@H](O)[C@H](Cc1ccccc1)NC(=O)c1cc(=O)c2ccccc2o1)c1cc(=O)c2ccccc2o1 | - | substrate cleavage | - | IC50 | - | 90 µM |
| CC(C)(C)NC(=O)[C@H]1CCCN1C(=O)[C@H](Cc1ccccc1)N(O)C(=O)[C@H](Cc1ccccc1)NC(=O)OCc1ccccc1 | - | HPLC | - | IC50 | - | 0.48 µM |
| CC(C)(C)NC(=O)[C@@H]1C[C@@H]2CCCC[C@@H]2CN1C[C@@H](O)[C@H](Cc1ccccc1)NC(=O)[C@@H](NC(=O)Cc1cc2c(O)cccc2cn1)C(C)(C)S(C)(=O)=O | - | - | - | Ki | - | 0.000151 µM |
| CC(C)[C@H](NC(=O)c1cc(=O)c2ccccc2[nH]1)C(=O)N[C@@H](Cc1ccccc1)[C@H](O)[C@@H](O)[C@H](Cc1ccccc1)NC(=O)c1cc(=O)c2ccccc2o1 | - | substrate cleavage | - | IC50 | - | 0.13 µM |
| Cc1c(O)cccc1C(=O)N(O)CC(=O)N[C@@H](Cc1ccccc1)C(=O)NC(C)(C)C | - | HPLC | - | IC50 | - | 3.4 µM |
| CC1=CC[C@H]([C@@H](C)C2CC[C@@]3(C)C4=C(C=C5C=CC(=O)OC(C)(C)[C@@H]5CC4)CC[C@]23C)OC1=O | - | substrate cleavage | - | IC50 | - | 8 µg/mL |
| CC(C)(C)NC(=O)[C@H]1CCCN1C(=O)CN(O)C(=O)[C@H](Cc1ccccc1)NC(=O)OCC1c2ccccc2-c2ccccc21 | - | HPLC | - | IC50 | - | 1.33 µM |
| CC(C)(C)NC(=O)[C@@H]1CCCN1C(=O)[C@@H](O)[C@H](Cc1ccccc1)NC(=O)[C@H](CS(N)(=O)=O)NC(=O)OC(C)(C)C | - | - | - | IC50 | - | >5 µM |
| COc1cc(C(O)C(C)Oc2ccc([C@@H]3O[C@H](c4ccc(O)c(OC)c4)[C@@H](C)[C@@H]3C)cc2OC)ccc1O | - | HPLC | - | IC50 | - | >125 µM |
| CC(C)c1nc(COC(=O)N[C@@H](C(=O)N[C@@H](Cc2ccccc2)[C@H](O)CN2CCN(Cc3cncs3)C[C@H]2C(=O)NC(C)(C)C)C(C)C)cs1 | - | substrate cleavage | - | IC50 | - | 0.027 µM |

A second listing of 3 rows from above:

SMILES,strain,read by,setting,measure,mutations,result
CC(C)[C@H](NC(=O)c1cc(=O)c2ccccc2[nH]1)C(=O)N[C@@H](Cc1ccccc1)[C@H](O)[C@@H](O)[C@H](Cc1ccccc1)NC(=O)c1cc(=O)c2ccccc2o1,-,substrate cleavage,-,IC50,-,0.13 µM
CC(C)(C)NC(=O)[C@H]1CCCN1C(=O)[C@H](Cc1ccccc1)N(O)C(=O)[C@H](Cc1ccccc1)NC(=O)OCc1ccccc1,-,HPLC,-,IC50,-,0.48 µM
CC(C)[C@@H]1NC(=O)CCOCCCOc2ccc(cc2)C[C@@H]([C@H](O)CN2C[C@H]3CCCC[C@H]3C[C@H]2C(=O)NC(C)(C)C)NC1=O,IIIB,HPLC,-,IC50,-,0.001 µM